Data published in PubChem BioAssay AID1745856 (National Center for Advancing Translational Sciences (NCATS), 2022).
This is a selection; strong and weak results do not stand in their true shares. Results filed as inconclusive are left out. The source made the active and inactive calls. Calls come from the whole dose curve.

Test: Primary qHTS Assay for Foot and Mouth Disease Virus Antivirals against NCGC Sytravon and CBC Compound Libraries: Firefly Luciferase Signal; note: nearly all actives have a fitted effect of over 60% in size
Conditions: FMDV antiviral cell assay; at 57.5 µM (top of the series) unless noted
% is set by controls: 0 for no effect and ±100 for the full control effect.

Compound | activity change, negative = inhibition
Fc1ccc(CNC2=NCC(CBr)S2)cc1 (configuration not stated) | inactive: 0%
O=C(NC(Sc1ccccc1)C(Cl)(Cl)Cl)c1ccc(Cl)cc1 (configuration not stated) | inactive: -11.6%
O=C(NC(Sc1ccc(Cl)cc1)C(Cl)(Cl)Cl)c1ccccc1 (configuration not stated) | inactive: 3.79%
Cc1cccc(C(=O)NC(Sc2ccccc2)C(Cl)(Cl)Cl)c1 (configuration not stated) | inactive: 4.98%
Clc1cccc(NC2=NCC(CBr)S2)c1 (configuration not stated) | inactive: 31.3%
O=C(/C=C/c1ccccc1)NC(Sc1ccc(Cl)cc1)C(Cl)(Cl)Cl (configuration not stated) | inactive: 0%
ClCCNC1C2CC3CC(C2)CC1C3 (configuration not stated) | inactive: 0%
Fc1ccc(NC2=NCC(CI)S2)c(F)c1 (configuration not stated) | inactive: 3.3%
BrCC1CN=C(Nc2ccccc2)S1 (configuration not stated) | inactive: 45.5%
NNc1ccc([N+](=O)[O-])cc1[N+](=O)[O-] | inactive: 103%
Cc1ccc(C(=O)NC(Sc2ccc(Cl)cc2)C(Cl)(Cl)Cl)cc1 (configuration not stated) | inactive: 0.411%
O=[N+]([O-])c1cccc([N+](=O)[O-])c1 | inactive: -16.2% [at 115 µM]
CN(C(=O)Cc1ccc(Cl)c(Cl)c1)[C@H]1CC[C@@]2(CCCO2)C[C@@H]1N1CCCC1 | inactive: -29.8%
Cc1ccc(C(=O)NC(Sc2ccccc2)C(Cl)(Cl)Cl)cc1 (configuration not stated) | inactive: 2.53%
NC(=O)Nc1ccc([As](=O)(O)O)cc1 | inactive: 7.23%
Cc1cccc([N+](=O)[O-])c1[N+](=O)[O-] | inactive: -17.4% [at 22.9 µM]
CCn1nc(C(=O)NCC2(N3CCCCC3)CCCCC2)c2ccccc2c1=O | inactive: 6.52%
CCOP(=O)(CC)Oc1ccc([N+](=O)[O-])cc1 (configuration not stated) | inactive: -18.5%
C/C1=C2N=C(/C=C3N=C(/C(C)=C4\[N-][C@@](C)([C@@H]5N=C1[C@](C)(CCC(=O)NC[C@@H](C)OP(=O)([O-])O[C@H]1[C@@H](O)[C@@H](n6cnc7cc(C)c(C)cc76)O[C@@H]1CO)[C@H]5CC(N)=O)[C@@](C)(CC(N)=O)[C@@H]4CCC(N)=O)[C@@](C)(CC(N)=O)[C@@H]\3CCC(N)=O)C(C)(C)[C@@H]/2CCC(N)=O.[C-]#N.[Co+3] | inactive: -20.6% [at 11.5 µM]
CN(C(=O)Cc1ccccc1)[C@H]1CC[C@@]2(CCCO2)C[C@@H]1N1CCCC1 | inactive: -14.9% [at 11.5 µM]
CCNC(C)Cc1ccc2c(c1)OCO2 (configuration not stated) | inactive: 17.9% [at 27 µM]
BrCCNCCc1ccncc1 | inactive: 3.1%
